# Potato spindle tuber viroid, loop 6: variant abundance in plants

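Three N. benthamiana plants were inoculated with the whole mutant pool. Samples came from the inoculated region at 5 days, the leaf margin at 10 and upper systemic leaves at 12.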

Region: loop 6 of PSTVd (intermediate strain), upper and lower strand joined, each 5' to 3', the first 5 letters being the upper strand, closing pairs included. Wild type: UGACCGCGAG. Varied positions (N): UNNNCGNNNG.

Numbers give reads per thousand; 0 = not seen among the reads, higher = more abundant. Each value is the mean of three plants. "Pool" is the share in the plasmid pool used as inoculum, on the same scale. The inoculated region was read from the minus strand, the other sites from the plus strand. Wild type was 20.7 per thousand in the pool and the most common sequence in every sample (inoculated region 195, 198, 203; leaf margin 629, 591, 734; systemic leaves 942, 870, 868). With 36,220-57,551 reads a sample, very low values are single reads. The authors trace changes outside the varied positions to PCR and sequencing errors or to mutation in the plant; presence does not show that a variant is infectious alone.

| sequence | pool | inoculated region | leaf margin | systemic leaves |
|---|---|---|---|---|
| UAACCGGUAG | 0.222 | 0.0838 | 0 | 0 |
| UAAGCGAUUG | 0.314 | 0.102 | 0 | 0 |
| UAAGCGCUAG | 0.170 | 0.0831 | 0.0155 | 0 |
| UACCCGGGUG | 0.118 | 0.0889 | 0 | 0 |
| UACUCGGGCG | 0.157 | 0.113 | 0.00920 | 0 |
| UAGGCGUAUG | 0.353 | 0.0956 | 0.0828 | 0 |
| UAGUCGACUG | 0.327 | 0.0833 | 0.00920 | 0 |
| UAUACGGGUG | 0.418 | 0.0895 | 0 | 0 |
| UAUCCGGAGU | 0.0131 | 0 | 0 | 0 |
| UAUGCGCGAG | 0.157 | 0.114 | 0.0460 | 0.0401 |
| UAUUCGUGGG | 0.183 | 0.0824 | 0 | 0 |
| UCAACGUAAG | 0.0654 | 0.677 | 0.120 | 0 |
| UCAGCGUCCG | 0.353 | 0.125 | 0.0232 | 0.0325 |
| UCGACGCGAU | 0.0131 | 0.0904 | 0.0261 | 0 |
| UCGACGGAAG | 0.144 | 0.0661 | 0.00773 | 0 |
| UCGCCGUCAG | 0.235 | 0.0536 | 0.00773 | 0 |
| UCUGCGAAAG | 0.288 | 0.0770 | 0.00773 | 0 |
| UCUGCGUCCG | 0.261 | 0.0769 | 0 | 0 |
| UCUUCGAAAG | 0.314 | 0.172 | 0.0260 | 0 |
| UGAACGAAUG | 0.353 | 0.168 | 0.0600 | 0 |
| UGAACGCUUG | 0.327 | 0.138 | 0.0169 | 0.00673 |
| UGACAGGCGG | 0.0131 | 0 | 0 | 0 |
| UGAGCGGGAG | 0.183 | 3.80 | 1.15 | 0.411 |
| UGAGCUGUCC | 0.0131 | 0 | 0 | 0.00673 |
| UGAUCGUCGG | 0.340 | 0.0958 | 0.00920 | 0 |
| UGAUCGUUCG | 0.275 | 0.0940 | 0.00920 | 0 |
| UGCACGACUG | 0.327 | 0.0835 | 0 | 0 |
| UGCACGGUGG | 0.392 | 0.0940 | 0.00841 | 0 |
| UGCACGUUCG | 0.275 | 0.0998 | 0.0460 | 0 |
| UGCUCGUGGG | 0.209 | 0.0826 | 0 | 0 |
| UGGACGUAUG | 0.379 | 0.101 | 0.0552 | 0 |
| UGGGCGUCAG | 0.288 | 0.0887 | 0.00920 | 0 |
| UGGGCGUCUG | 0.209 | 0.106 | 0.0155 | 0 |
| UGGUCGGAGG | 0.327 | 0.143 | 0.00773 | 0 |
| UGUACGGUCG | 0.301 | 0.119 | 0.00773 | 0 |
| UGUUCGAAGG | 0.261 | 0.0594 | 0 | 0.00684 |
| UGUUCGGACG | 0.275 | 0.0951 | 0.0169 | 0.00673 |
| UUAGCGCCCG | 0.366 | 0.0656 | 0 | 0.00684 |
| UUAGCUGUCC | 0.0131 | 0 | 0 | 0 |
| UUAUCGUGCG | 0.248 | 0.107 | 0.00773 | 0 |
| UUCACGGAAG | 0.196 | 0.549 | 0.0875 | 0 |
| UUCCCUGUCC | 0.0131 | 0 | 0 | 0 |
| UUGACUAUGG | 0.0131 | 0 | 0 | 0 |
| UUGUCGCCGG | 0.222 | 0.0951 | 0 | 0 |
| UUUCCGCGGG | 0.209 | 0.130 | 0.0309 | 0.00684 |
| UUUGCGAGCG | 0.209 | 0.0905 | 0 | 0 |
| UUUUCGCAAG | 0.157 | 0.131 | 0.00773 | 0 |

Excerpt, the final 6 entries:

For UUCCCUGUCC (pool 0.0131) the result was inoculated region 0; leaf margin 0; systemic leaves 0.
For UUGACUAUGG (pool 0.0131) the result was inoculated region 0; leaf margin 0; systemic leaves 0.
For UUGUCGCCGG (pool 0.222) the result was inoculated region 0.0951; leaf margin 0; systemic leaves 0.
For UUUCCGCGGG (pool 0.209) the result was inoculated region 0.130; leaf margin 0.0309; systemic leaves 0.00684.
For UUUGCGAGCG (pool 0.209) the result was inoculated region 0.0905; leaf margin 0; systemic leaves 0.
For UUUUCGCAAG (pool 0.157) the result was inoculated region 0.131; leaf margin 0.00773; systemic leaves 0.

From the data files of Wu et al. 2024, doi:10.1371/journal.ppat.1012142.